In PMC7806604, “Structural and functional analysis of the Francisella lysine decarboxylase as a key actor in oxidative stress resistance” (2021) one finds stoichiometry N data, which are given here for one substance.

The test has as its target Francisella novicida lysine decarboxylase LdcF (Francisella novicida). In words: crystal structure.

One may read the stoichiometry N as the number of molecules, sites or subunits per partner or assembly. “Francisella novicida lysine decarboxylase LdcF (enzyme)” showed a stoichiometry N of 10.
